Results of unrelated studies side by side (data: NIAID ChemDB).

All rows: growth or infection tests; agent: Cryptococcus neoformans; measure: MIC

Neighbouring rows are from separate reports. a–b is a range or a potency band. An empty or dashed field is not shown.

{"compound": "CO[C@H]1C[C@H](O[C@H]2CC[C@@]3(C)C(=CC[C@@H]4[C@@H]3CC[C@]35C(=O)O[C@H](C)[C@H]3C(=O)C[C@]45O)C2)O[C@H](C)[C@H]1O", "read by": "broth dilution / turbidity", "strain": "IP 90526", "value": "25 µg/mL"}
{"compound": "CCCc1nc([N+]#N)c(C(=O)N2CCCC2)[nH]1", "strain": "L29", "value": "50 µg/mL"}
{"compound": "C[C@H]1CCC/C=C/[C@@H]2C[C@H](O)C[C@H]2[C@@H](O)/C=C/C(=O)O1", "read by": "broth dilution / absorbance", "strain": "ATCC 90113", "value": ">128 µg/mL"}
{"compound": "COc1cc(O)c2c(c1)OC(c1ccc(O)cc1)CC2=O", "read by": "broth dilution", "strain": "KN99alpha", "value": "320 µg/mL"}
{"compound": "N#[N+]c1nc(-c2ccccc2Cl)[nH]c1C(=O)N1CCCC1", "strain": "L29", "value": "50 µg/mL"}
{"compound": "c1ccc(CC[n+]2c3ccccc3cc3[nH]c4ccccc4c32)cc1", "strain": "ATCC 52657", "value": "31.2 µg/mL"}
{"compound": "COC(=O)[C@]12CCC(C)(C)C=C1C1CCC3[C@@]4(C)CCC(=O)C(C)(C)C4CC[C@@]3(C)[C@]1(C)CC2", "read by": "broth dilution", "strain": "ATCC 208821", "value": "50 µg/mL"}
{"compound": "c1ccc(CCCCCCCC[n+]2c3ccccc3cc3[nH]c4ccccc4c32)cc1", "strain": "ATCC 52657", "value": "10 µg/mL"}
{"compound": "Cc1ccc(NC(=O)CN(C)CC(O)Cn2c(=O)c3ccccc3n(C)c2=O)cc1", "read by": "agar diffusion", "value": "128 µg/mL"}
{"compound": "Cn1c2c3ccccc3nc-2cc2ccccc21", "strain": "ATCC 52657", "value": "12.5–15.6 µg/mL"}
{"compound": "CO[C@H]1C[C@H](O[C@H]2CC[C@@]3(C)C(=CC[C@@H]4[C@@H]3CC[C@]35C(=O)O[C@H](C)[C@H]3C(=O)C[C@]45O)C2)O[C@H](C)[C@H]1O[C@H]1C[C@H](OC)[C@H](O[C@@H]2C[C@@H](OC)[C@@H](O)[C@H](C)O2)[C@@H](C)O1", "read by": "broth dilution / turbidity", "strain": "IP 90526", "value": "50 µg/mL"}
{"compound": "C[C@@H]1[C@H](O)[C@@H](C)/C=C/C=C/CC/C=C/C=C/C=C/C=C/C(O[C@H]2O[C@H](C)[C@@H](O)[C@H](N)[C@@H]2O)CC2O[C@](O)(CC(O)C(O)CCC(O)CC(O)CC(O)CC(=O)O[C@H]1C)CC(O)C2C(=O)O", "read by": "broth dilution", "strain": "IP 90526", "value": "6.25 µg/mL"}
{"compound": "CO[C@H]1C[C@H](O[C@H]2CC[C@@]3(C)C(=CC[C@H]4C5=CC(=O)[C@@H]6[C@@H](C)OC(=O)[C@]56CC[C@@H]43)C2)O[C@H](C)[C@H]1O[C@H]1C[C@H](OC)[C@H](O[C@H]2C[C@H](OC)[C@H](O[C@@H]3C[C@@H](OC)[C@@H](O)[C@H](C)O3)[C@@H](C)O2)[C@@H](C)O1", "read by": "broth dilution / turbidity", "strain": "IP 90526", "value": "100 µg/mL"}
{"compound": "C=CCc1ccc(O)c(-c2ccc(O)c(CC=C)c2)c1", "strain": "KCTC 7224", "value": "50 µg/mL"}
{"compound": "CC(C)c1nc([N+]#N)c(C(=O)N2CCCC2)[nH]1", "strain": "L29", "value": "100 µg/mL"}
{"compound": "COC[n+]1c2ccccc2cc2[nH]c3ccccc3c21", "strain": "ATCC 52657", "value": "31.2 µg/mL"}
{"compound": "C[C@@H]1C=C2C3CCC4[C@@]5(C)CC[C@@H](O)C(C)(C)C5CC[C@@]4(C)[C@]3(C)CC[C@@]2(C(=O)O)CC1", "read by": "broth dilution", "strain": "ATCC 208821", "value": ">200 µg/mL"}
{"compound": "CO[C@H]1C[C@H](O[C@H]2CC[C@@]3(C)C(=CC[C@H]4C5=CC(=O)[C@@H]6[C@@H](C)OC(=O)[C@]56CC[C@@H]43)C2)O[C@H](C)[C@H]1O[C@H]1C[C@H](OC)[C@H](O[C@@H]2C[C@@H](OC)[C@@H](O[C@@H]3O[C@H](CO[C@@H]4O[C@H](CO)[C@@H](O)[C@H](O)[C@H]4O)[C@@H](O)[C@H](O)[C@H]3O)[C@H](C)O2)[C@@H](C)O1", "read by": "broth dilution / turbidity", "strain": "IP 90526", "value": "25 µg/mL"}
{"compound": "COc1c(CC=C(C)C)c(O)cc2occ(-c3ccc4c(c3)OCO4)c(=O)c12", "read by": "broth dilution", "strain": "IP 90526", "value": ">100 µg/mL"}
{"compound": "CC1(C)C=C2C3CCC4[C@@]5(C)CCC(=O)C(C)(C)C5CC[C@@]4(C)[C@]3(C)CC[C@@]2(C(=O)O)CC1", "read by": "broth dilution", "strain": "ATCC 208821", "value": "200 µg/mL"}
{"compound": "N#[N+]c1nc(-c2ccc(F)cc2F)[nH]c1C(=O)N1CCCC1", "strain": "L29", "value": "200 µg/mL"}
{"compound": "C[C@@H]1[C@H](O)[C@@H](C)/C=C/C=C/C=C/C=C/C=C/C=C/C=C/[C@H](O[C@@H]2O[C@H](C)[C@@H](O)[C@H](N)[C@@H]2O)C[C@@H]2O[C@](O)(C[C@@H](O)C[C@@H](O)[C@H](O)CC[C@@H](O)C[C@@H](O)CC(=O)O[C@H]1C)C[C@H](O)[C@H]2C(=O)O", "read by": "broth dilution", "strain": "ATCC 32608", "value": "0.04 µg/mL"}

2 of the rows above, restated:

compound,read by,strain,value
COc1c(CC=C(C)C)c(O)cc2occ(-c3ccc4c(c3)OCO4)c(=O)c12,broth dilution,IP 90526,>100 µg/mL
Cn1c2c3ccccc3nc-2cc2ccccc21,-,ATCC 52657,12.5–15.6 µg/mL